Reference: PubChem BioAssay AID276 (DTP/NCI, 2004)
“And” between values parts separate entries of the source, which are not always exact repeats. Equal entries are not always repeated. Toxic doses and inconclusive results are not listed.

System: B6C3F1 mice, Lewis lung carcinoma iv, survival T/C
Assay: NCI In Vivo Anticancer Drug Screen. Data for tumor model Lewis Lung Carcinoma (intravenous) in B6C3F1 mice
Conditions: endpoint: median survival time, schedule: Q01DX009 (ip), vehicle: saline, higher = longer survival
Experimental: The antitumor activity of compounds was measured in mice bearing transplantable tumors. Survival or tumor size were measured and the results are expressed as the measurement made in the treated group (T) divided by the measurement made in the vehicle treated control group (C). The tumor model used in this assay is Lewis Lung Carcinoma (intravenous) in B6C3F1 mice

O=P1(N(CCCl)CCCl)NC(SCCS(=O)(=O)O)CCO1 (centres undefined)
T/C (dose: 12.5 mg/kg/injection): 101 % of control | T/C (dose: 25.0 mg/kg/injection): 119 % of control | T/C (dose: 50.0 mg/kg/injection): 173 % of control | T/C (dose: 100.0 mg/kg/injection): 279 % of control and 294 % of control
